Anti-infective test results gathered from many reports (values: NIAID ChemDB through PubChem).

All rows: tests in culture; species: HIV-2; cell line: MT-4; measure: EC50

ECn: concentration that inhibits the pathogen or its effect by n%. Rows are shuffled and stem from different studies. An empty or dashed field is not shown.

structure	strain or isolate	method	setting	value
Cc1cn([C@H]2C[C@H](N=[N+]=[N-])[C@@H](CO)O2)c(=O)[nH]c1=O	ROD	cytopathic effect / MTT	-	0.002 µM
Cc1cc(C)nc(NS(=O)(=O)c2ccc(N=C3C(=O)Nc4ccccc43)cc2)n1	ROD	cytopathic effect / MTT	-	41.5 µg/mL
O=c1[nH]cnc2c1ncn2[C@H]1CC[C@@H](CO)O1	ROD	cytopathic effect / MTT	0% human serum	2.71 µM
CCNC(N)=NCCCNc1ccc2[nH]ccc2c1	ROD	MTT	-	>52.67 µM
Cc1cn([C@@H]2O[C@H](CO[Si](C)(C)C(C)(C)C)[C@@H](O)[C@H]2O[Si](C)(C)C(C)(C)C)c(=O)n(CC(=O)ON)c1=O	ROD	cytopathic effect / trypan blue	-	>2 µM
C1CNCCNCC(C2CNCCNCCCNCCNC2)CNCCNC1	ROD	cytopathic effect / MTT	-	>200 µg/mL
Cc1cn([C@H]2C[C@H](N=[N+]=[N-])[C@@H](CO)O2)c(=O)[nH]c1=O	ROD	cytopathic effect / MTT	5 d	0.087 µM
Cc1cn([C@@H]2O[C@H](CO[Si](C)(C)C(C)(C)C)[C@@H](O)[C@H]2O[Si](C)(C)C(C)(C)C)c(=O)n(CC(=O)O)c1=O	ROD	cytopathic effect / trypan blue	-	>10 µM
Nc1ncnc2c1ncn2C1CC(CO)(CO)C1	ROD	cytopathic effect / MTT	-	>500 µM
CC(=O)N1C(=O)C(=Nc2ccc(S(=O)(=O)Nc3nc(C)cc(C)n3)cc2)c2ccccc21	ROD	cytopathic effect / MTT	-	90.9 µg/mL
CCc1c(Sc2cccc3ccccc23)nc(SCC(=O)c2ccc(Cl)cc2)[nH]c1=O	ROD	cytopathic effect / MTT	-	>25.5 µM
Nc1ncnc2c1ncn2CCOCP(=O)(O)O	-	trypan blue	-	7.5 µM
Cc1cc(C#Cc2cccc(N)c2)cc(C)c1Oc1ccnc(Nc2ccc(C#N)cc2)n1	ROD	MTT	-	>5.005 µM
c1cc2cc(NCCCNC3=NCCCN3)ccc2[nH]1	ROD	MTT	-	>167 µM
Cc1cc(C#Cc2cccc(N)c2)cc(C)c1Oc1ccnc(NC2CCN(Cc3ccc(S(N)(=O)=O)cc3)CC2)n1	ROD	MTT	-	>0.732 µM
Cc1cn([C@H]2C[C@H](N=[N+]=[N-])[C@@H](CO)O2)c(=O)[nH]c1=O	ROD	cytopathic effect / MTS	-	0.0004 µM
CCc1c(Sc2cccc3ccccc23)nc(SCC(=O)c2ccc(F)cc2F)[nH]c1=O	ROD	cytopathic effect / MTT	-	>31.2 µM
Cc1cn([C@@H]2O[C@H](COC(=O)c3ccccc3)[C@@H](O)[C@H]2OC(=O)c2ccccc2)c(=O)n(CC(=O)O)c1=O	ROD	cytopathic effect / trypan blue	-	>50 µM
C=C1C[C@@H](n2cnc3c(N)ncnc32)[C@@H]1CO	ROD	cytopathic effect / MTT	-	>100 µM
NCCCNc1ccc2[nH]ccc2c1	ROD	MTT	-	>229 µM
CCOCn1c(Sc2cc(C)cc(C)c2)c(C(C)C)c(=O)[nH]c1=S	ROD	trypan blue	-	>50 µM
CN=C(N)NCCCNc1ccc2[nH]ccc2c1	ROD	MTT	-	>144 µM
Cc1cn([C@@H]2O[C@H](CO[Si](C)(C)C(C)(C)C)[C@@]3(OS(=O)(=O)C=C3N)[C@H]2O[Si](C)(C)C(C)(C)C)c(=O)[nH]c1=O	ROD	trypan blue	-	>50 µM
c1cc2cc(NCCNC3=NCCCN3)ccc2[nH]1	ROD	MTT	-	58.14 µM
C1CNCCNCCCNCCNC1	ROD	cytopathic effect / MTT	-	54 µg/mL
Cc1cc(C#Cc2cccc(N)c2)cc(C)c1Oc1ccnc(NC2CCN(Cc3ccc(C#N)cc3)CC2)n1	ROD	MTT	-	>0.261 µM
Cc1cc(C)nc(NS(=O)(=O)c2ccc(N=C3C(=O)Nc4ccc(Br)cc43)cc2)n1	ROD	cytopathic effect / MTT	-	78.2 µg/mL
Cc1cn([C@H]2C[C@H](N=[N+]=[N-])[C@@H](CO[Si](C)(C)C(C)(C)C)O2)c(=O)n(CC(=O)O)c1=O	ROD	cytopathic effect / trypan blue	-	>50 µM
COc1ccc(CN[C@@H](C(=O)N[C@H](C(=O)NCc2nc3ccccc3[nH]2)C(C)C)[C@H](O)[C@H](Cc2ccccc2)NC(=O)[C@@H](NC(=O)CCc2ccc(O)cc2)C(C)(C)C)cc1	ECHO	p24	-	0.38 µM
CN(C)c1cccc2c(S(=O)(=O)N3CCSC3c3cccnc3)cccc12	ROD	cytopathic effect / MTT	5 d	>2000 µM
c1ccc(CNCc2ccc(CN3CCCNCCNCCCNCC3)cc2)nc1	ROD	cytopathic effect / MTS	-	0.0123 µM
NC(=NCC(=O)NCCNc1ccc2[nH]ccc2c1)N[N+](=O)[O-]	ROD	MTT	-	>391 µM
Cc1cc(C#Cc2ccccn2)cc(C)c1Oc1ccnc(Nc2ccc(C#N)cc2)n1	ROD	MTT	-	>2.068 µM
Cc1c(Sc2ccccc2)n(COCCO)c(=O)[nH]c1=O	ROD	cytopathic effect / MTT	-	>250 µM